Experimental data published in publication PMC4267653, “DNA cleavage by CgII and NgoAVII requires interaction between N- and R-proteins and extensive nucleotide hydrolysis” (Nucleic Acids Research, 2014).

Experiments:
Experiment in all cases: EMSA
[1] = tested on: R.NgoAVII (Neisseria gonorrhoeae FA1090); conditions: 5 mM Ca-acetate, EMSA: 1 nM 33P-DNA, 1-500 nM protein monomer, 40 mM Tris-acetate pH 8.3 (25°C), 0.1 mM EDTA (NgoAVII: 5 mM Ca-acetate instead), 0.1 mg/ml BSA, 10% glycerol, 15 min, recombinant protein, protein details: His6, N-terminal (not removed), label: 33P
[2] = tested on: N.NgoAVII (Neisseria gonorrhoeae FA1090); conditions: 5 mM Ca-acetate, EMSA: 1 nM 33P-DNA, 1-500 nM protein monomer, 40 mM Tris-acetate pH 8.3 (25°C), 0.1 mM EDTA (NgoAVII: 5 mM Ca-acetate instead), 0.1 mg/ml BSA, 10% glycerol, 15 min, recombinant protein, label: 33P
[3] = tested on: R.NgoAVII-B3 (Neisseria gonorrhoeae FA1090); conditions: 5 mM Ca-acetate; EMSA: 1 nM 33P-DNA, 1-500 nM protein monomer, 40 mM Tris-acetate pH 8.3 (25°C), 0.1 mM EDTA (NgoAVII: 5 mM Ca-acetate instead), 0.1 mg/ml BSA, 10% glycerol, 15 min; recombinant protein; label: 33P

| Sequence | binding result ([1]; little or no binding) | binding result ([2]; little or no binding) | binding result [1] | binding result [3] | binding result [2] |
| --- | --- | --- | --- | --- | --- |
| TACAATCGATAATACCAGGCGTGCGAGCCCATT (double strand) [33 bp non-cognate duplex] | binds more weakly | binds more weakly |  |  |  |
| TACAATCGATAATAGCCGCCGTGCGAGCCCATT (double strand) [33 bp cognate duplex] |  |  | binds | binds | no binding |

Construct, isoform or probe ends are uncertain for at least one entry. For some assays here: Negatives hold for the conditions tested. For some assays here: A weaker result is weaker than the reference pair of the same experiment. For some assays here: At least one verdict rests on a figure or table, not on a statement of the authors.
